One series concerns the target Mtb Lpd (Mycobacterium tuberculosis (strain ATCC 25618 / H37Rv), UniProt P9WHH9). Briefly: LPD assay (DTNB assay), Mtb Lpd WT. The following applies: read-out: LPD IC50. The series is classed as biochemical.
A short description of series [1]: Microsomal clearance (hLM). The following applies: human liver microsomes.
Series [2] deals with WT Mycobacterium tuberculosis H37Rv. Description: MIC assay. The following applies: for MIC90: WT Mtb grown in a carbohydrate-based medium.
A further series deals with WT Mtb. Description: Nitrosative stress survival (pH 5.5 with or without 3 mM NaNO2), CFU.
A further series deals with WT Mtb in mouse BMDM. Briefly: Infection of BMDM with Mtb, CFU. The following applies: day 6 post infection, 30 μM.
In another series the target is human Lpd (Homo sapiens (Human), UniProt P09622). Briefly: SPR, human Lpd. Type of series: binding.
In a further series the test system is HEPG2 cells. Briefly: Cytotoxicity in HEPG2 cells.

Amino acid sequences for entries named in this document (tags omitted). Residues count along the entry.
UniProt P9WHH9, whole entry: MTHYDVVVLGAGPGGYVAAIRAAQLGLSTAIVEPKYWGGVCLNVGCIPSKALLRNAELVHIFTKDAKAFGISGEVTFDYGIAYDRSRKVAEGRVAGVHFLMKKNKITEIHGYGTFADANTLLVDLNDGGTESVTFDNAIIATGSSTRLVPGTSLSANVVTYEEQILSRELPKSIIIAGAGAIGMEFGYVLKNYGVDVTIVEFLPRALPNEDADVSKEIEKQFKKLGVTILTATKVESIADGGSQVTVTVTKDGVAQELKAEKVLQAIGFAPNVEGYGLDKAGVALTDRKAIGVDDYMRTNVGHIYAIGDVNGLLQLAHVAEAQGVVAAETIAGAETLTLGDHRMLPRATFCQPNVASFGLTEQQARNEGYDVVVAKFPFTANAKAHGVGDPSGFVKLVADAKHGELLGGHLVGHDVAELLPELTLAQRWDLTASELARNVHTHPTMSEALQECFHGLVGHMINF
UniProt P09622, 36-509 limits assumed: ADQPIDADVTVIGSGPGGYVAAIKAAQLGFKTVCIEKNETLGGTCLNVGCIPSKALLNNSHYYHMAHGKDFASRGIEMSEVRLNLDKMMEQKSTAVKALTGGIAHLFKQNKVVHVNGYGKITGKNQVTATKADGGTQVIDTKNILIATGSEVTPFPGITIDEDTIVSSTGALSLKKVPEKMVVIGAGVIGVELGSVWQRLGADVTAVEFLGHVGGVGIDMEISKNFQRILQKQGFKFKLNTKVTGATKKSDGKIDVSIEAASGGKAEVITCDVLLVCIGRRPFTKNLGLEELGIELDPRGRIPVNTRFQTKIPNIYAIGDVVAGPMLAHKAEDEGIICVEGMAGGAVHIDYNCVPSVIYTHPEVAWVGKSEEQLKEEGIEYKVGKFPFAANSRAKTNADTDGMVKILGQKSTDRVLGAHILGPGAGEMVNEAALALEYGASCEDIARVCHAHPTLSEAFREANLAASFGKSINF

Values after ≈ are worked out from the molar mass of the structure shown.

The values below come from patent US20240132480A1, “INHIBITORS OF MYCOBACTERIUM TUBERCULOSIS LIPOAMIDE DEHYDROGENASE” (Cornell University, priority 2021, published 2024).

The IC50 is the point on the concentration scale where inhibition reaches its midpoint. As usually defined, the MIC90 is an inhibitory concentration at the 90% level, which refers to growth in some studies and to a panel of isolates in others. Read a low MIC90 as higher susceptibility.

As to `Cc1cc(S(=O)(=O)N(C)CC(=O)Nc2ccc(N3CCN(C)CC3)c(Cl)c2)c2[nH]ncc2c1`, the IC50 at Mtb Lpd came to 44.3 nM. Further, the “Human Liver Microsome Stability” value in series [1] stood at 46 µL/min/mg.

Regarding `Cc1cc(S(=O)(=O)N(C)CC(=O)Nc2ccc(N3CCOCC3)c(Cl)c2)c2[nH]nc(F)c2c1`, at Mtb Lpd, the 50% inhibitory concentration (IC50) was 15 nM. Moreover, the “Human Liver Microsome Stability” value in series [1] is 144 µL/min/mg.

Turning to `Cc1cc(S(=O)(=O)N(C)CC(=O)Nc2ccc(N3CCOCC3)c(F)c2)c2[nH]ncc2c1`, the concentration for half-maximal inhibition (IC50) on Mtb Lpd was determined as 31 nM. Also, the “Human Liver Microsome Stability” value in series [1] is 46 µL/min/mg.

As to `Cc1cc(S(=O)(=O)N(C)CC(=O)Nc2ccc(N3CCOCC3)c(Cl)c2)c2[nH]ccc2c1`, the IC50 on Mtb Lpd is 153 nM. Besides, the “Human Liver Microsome Stability” value in series [1] turned out to be 101 µL/min/mg.

Regarding `Cc1cc(S(=O)(=O)N(C)CC(=O)Nc2ncc(C)s2)c2[nH]ncc2c1`, the 50% inhibitory concentration (IC50) on Mtb Lpd came to 27.3 nM.

Turning to `Cc1cc(S(=O)(=O)N(C)CC(=O)Nc2ccc(N3CCOCC3)cc2)c2[nH]ncc2c1`, the IC50 on Mtb Lpd worked out at 29 nM. Also, the “Mtb MIC90” value in series [2] was 12 µM.

`Cc1cc(S(=O)(=O)N(C)CC(=O)Nc2ccn(C)c(=O)c2)c2[nH]ncc2c1` [Example 24, 2-((5-chloro-N-methyl-1H-indazole)-7-sulfonamido)-N-(1-methyl-2-oxo-1,2-dihydropyridin-4-yl)acetamide]: the “effect on WT Mtb survival (CFU)” value in the series on WT Mtb (pH 5.5 alone, same concentrations, 4 days) is given as “had no effect”; in the series with WT Mtb (pH 5.5 in the presence of 3 mM NaNO2, 4 days), “bactericidal in a concentration-dependent manner”. Also, the “inhibition of growth of Mtb” value with WT Mtb in mouse BMDM (IFNgama-activated BMDM) was found to be 0.5 log10; in the series on WT Mtb in mouse BMDM (naïve BMDM), 1 log10. The figures for the “SPR t1/2” value at human Lpd (Human WT) and at human Lpd (Human WT/NADH) were 1.9 min and 2.7 min, respectively. Also, the “cytotoxicity, no signs up to” value in the series on HEPG2 cells is more than 100 µM. Moreover, the “Mtb MIC90” value in series [2] was 3.1 µM. The same compound displayed an MIC90 in series [2] of 3.1 µM (≈ 1.21 µg/mL).

Take `Cc1cc2cn[nH]c2c(S(=O)(=O)N(C)CC(=O)Nc2ccn(C)c(=O)c2)c1C`: on Mtb Lpd, the 50% inhibitory concentration (IC50) came out at 86.8 nM. For the same compound, the “Human Liver Microsome Stability” value in series [1] came out at 58 µL/min/mg.

Take `CN(CC(=O)Nc1ccn(C)c(=O)c1)S(=O)(=O)c1cc(Br)cc2cn[nH]c12`: the “Human Liver Microsome Stability” value in series [1] was 36 µL/min/mg.

Regarding `CN(CC(=O)Nc1ccc(N2CCOCC2)c(Cl)c1)S(=O)(=O)c1cc(C(F)F)cc2cn[nH]c12`, the concentration for half-maximal inhibition (IC50) at Mtb Lpd was found to be 31.9 nM. Further, the “Human Liver Microsome Stability” value in series [1] came to 198 µL/min/mg.

As to `CCc1cc(NC(=O)CN(C)S(=O)(=O)c2cc(C)cc3cn[nH]c23)ccc1N1CCOCC1`, the 50% inhibitory concentration (IC50) on Mtb Lpd is 28.7 nM. Besides, the “Human Liver Microsome Stability” value in series [1] worked out at 179 µL/min/mg.

As to `CCN(CC(=O)Nc1ccc(N2CCOCC2)c(Cl)c1)S(=O)(=O)c1cc(C)cc2cn[nH]c12`, at Mtb Lpd, the 50% inhibitory concentration (IC50) worked out at 46.9 nM. Also, the “Human Liver Microsome Stability” value in series [1] is 131 µL/min/mg.

In the case of `Cc1cc(S(=O)(=O)N(C)CC(=O)Nc2ncc(-c3ccccc3)s2)c2[nH]ncc2c1`, the IC50 at Mtb Lpd was determined as 39.1 nM.

For the compound `Cc1cc(S(=O)(=O)N(C)CC(=O)Nc2nc(-c3ccccc3)cs2)c2[nH]ncc2c1`, the IC50 on Mtb Lpd stood at 70.6 nM.

`COc1ccc(NC(=O)CN(C)S(=O)(=O)c2cc(C)cc3cn[nH]c23)cc1Cl` [Example 1, N-(3-chloro-4-methoxyphenyl)-2-((N,5-dimethyl-1H-indazole)-7-sulfonamido)acetamide]: in series [2], the “Mtb MIC90” value is 25 µM and the MIC90 was 25 µM (≈ 10.6 µg/mL).

For the compound `Cc1cc(S(=O)(=O)N(C)CC(=O)Nc2ccc(N3CCOCC3)c(C3CC3)c2)c2[nH]ncc2c1`, the IC50 on Mtb Lpd was determined as 21.4 nM. The “Human Liver Microsome Stability” value in series [1] was determined as 164 µL/min/mg.

For the compound `Cc1cc(S(=O)(=O)N(C)CC(=O)Nc2ccc(C#N)c(Cl)c2)c2[nH]ncc2c1`, the half-maximal inhibitory concentration (IC50) at Mtb Lpd was found to be 29.3 nM.
